PubChem BioAssay AID504761 – Drosophila RNAi Screening Center, 2011
The screen tested about 22,000 reagents; this is an unselected part of those that have a named target and a result. Of all reagents, 116 (0.52%) got an active call. 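Calls depend on retest data that are not deposited; infection was ranked per plate without normalising between plates; the unit of the infection score is not given.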 Raw values vary from plate to plate and are shown uncorrected. The numbers tell different reagents against one gene apart. Names joined by + are all predicted targets of the reagent. Not all columns of the deposit are shown. Not given: the amount of reagent, the time to read-out.

- Aim: 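Fly genes whose silencing reduces dengue virus type 2 infection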 (primary screen)
- Cell system: D.Mel-2 cells from Drosophila
- Reagents: long dsRNA against Drosophila genes
- Challenge: infection with dengue virus type 2; dose and infection time not stated
- Read-out: 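Per well on two replicate plates, imaging gave the percent of cells positive for viral envelope protein, ranked by infection, and a nuclear count of cells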
- Direction: infection score: higher = more virus-infected cells; cell count: higher = more cells in the well
- Active means: 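Very low infection ranking in both replicate wells (chance probability at most 0.065), then a retest showing infection dropped 1.5-fold or more at p below 0.05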
- Meaning of the calls: active = confirmed: knock-down lowers infection; inactive = not picked or not confirmed

RpS3 (Ribosomal protein S3) → infection score, replicate 1 = 3.41; cell count, replicate 1 = 1967; call = inactive
Kdm4B (Lysine demethylase 4B) #1 → infection score, replicate 1 = 12.4; cell count, replicate 1 = 4729; call = inactive
Kdm4B (Lysine demethylase 4B) #2 → infection score, replicate 1 = 2.38; cell count, replicate 1 = 6302; call = inactive
l(2)k05911 (lethal (2) k05911) → infection score, replicate 1 = 9.25; cell count, replicate 1 = 5981; call = inactive
HP1b (Heterochromatin Protein 1b) #1 → infection score, replicate 1 = 11.7; cell count, replicate 1 = 5936; call = inactive
HP1b (Heterochromatin Protein 1b) #2 → infection score, replicate 1 = 15.2; cell count, replicate 1 = 6539; call = inactive
CG17931 + CG42446 → infection score, replicate 1 = 8.8; cell count, replicate 1 = 6264; call = inactive
CG32305 #1 → infection score, replicate 1 = 1.48; cell count, replicate 1 = 6468; call = inactive
CG32305 #2 → infection score, replicate 1 = 10.3; cell count, replicate 1 = 6553; call = inactive
CG14881 #1 → infection score, replicate 1 = 16.8; cell count, replicate 1 = 6431; call = inactive
CG14881 #2 → infection score, replicate 1 = 3.79; cell count, replicate 1 = 6074; call = inactive
Cyp311a1 (Cytochrome P450 311a1) #1 → infection score, replicate 1 = 1.45; cell count, replicate 1 = 6618; call = inactive
Cyp311a1 (Cytochrome P450 311a1) #2 → infection score, replicate 1 = 14.6; cell count, replicate 1 = 6138; call = inactive

2 successive entries already listed, quoted:
Kdm4B (Lysine demethylase 4B) #1 → infection score, replicate 1 = 12.4; cell count, replicate 1 = 4729; call = inactive
Kdm4B (Lysine demethylase 4B) #2 → infection score, replicate 1 = 2.38; cell count, replicate 1 = 6302; call = inactive
